Data set [1] in a line: Cytotoxicity, CellTiter 96 AQueous One Solution cell proliferation assay. The following applies: 37°C for 2 days, absorbance 490 nm, read-out: 50% cytotoxic concentration (CC50). It is filed as cell-based. The method, then:
The cytotoxicity of LP-80 on TZM-bl, MT-4, HEK293T, and human PBMC was measured using a CellTiter 96 AQueous One Solution cell proliferation assay (Promega). In brief, 50-μl volumes of LP-80 at graded concentrations were added to cells, which were seeded on a 96-well tissue culture plate (1 × 10^4 cells per well). After incubation at 37°C for 2 days, 20 μl of CellTiter 96 AQueous One solution reagent was pipetted into each well and further incubated at 37°C for 2 h. The absorbance was measured at 490 nm using a SpectraMax M5 microplate reader.

For another data set, the system named is HIV-1NL4-3. In words: In vitro selection of resistant HIV-1 mutants in MT-4 cells. It is filed as cell-based. The settings on record: passage on MT-4 cells with 2-fold increases in inhibitor concentration. Here is the method: Cells were incubated at 37°C with 5% CO2 until an extensive cytopathic effect was observed. Culture supernatants were harvested and used for next passage on fresh MT-4 cells with a 2-fold increase in inhibitor concentrations.

The subject of data set [2] is NL4-3G36S/V38M pseudovirus. Format: cell-based, HIV-1. The settings on record: IC50 on NL4-3G36S/V38M relative to NL4-3D36G. Here is the method:
(§1) The inhibitory activities of inhibitors against HIV-1 pseudoviruses and replication-competent isolates were measured as described previously. Briefly, HIV-1 pseudoviruses were generated via the cotransfection of HEK293T cells with an Env-expressing plasmid and a backbone plasmid that encodes Env-defective, luciferase-expressing HIV-1 genome (pSG3Δenv). Viral stocks of replication-competent HIV-1 isolates were generated by transfecting viral molecular clones into HEK293T cells. […] Inhibitors were prepared in 3-fold dilutions, mixed with 100 TCID50 of a virus, and then incubated for 1 h at room temperature. […] Luciferase activity was measured as described above.

The test system of the next data set is NL4-3Q40H pseudovirus. Format: cell-based, HIV-1. The settings on record: IC50 on NL4-3Q40H relative to NL4-3D36G. Here is the method: as §1
For another data set, the system named is NL4-3WT pseudovirus. Format: cell-based, HIV-1. The following applies: IC50 on NL4-3WT relative to NL4-3D36G. The method, then:
as §1

The next data set deals with NL4-3I37T pseudovirus. It is filed as cell-based, HIV-1. The following applies: IC50 on NL4-3I37T relative to NL4-3D36G. The method, then: as §1
In data set [3] the test system is NL4-3I37T/N43K pseudovirus. Format: cell-based, HIV-1. The settings on record: IC50 on NL4-3I37T/N43K relative to NL4-3D36G. The method, then: as §1
Data set [4] deals with NL4-3V38A/N42T pseudovirus. It is filed as cell-based, HIV-1. The settings on record: for Fold change: IC50 on NL4-3V38A/N42T relative to NL4-3D36G. Here is the method: as §1
Another data set concerns NL4-3V38A pseudovirus. It is filed as cell-based, HIV-1. The settings on record: IC50 on NL4-3V38A relative to NL4-3D36G. The method, then:
as §1

The test system of another data set is NL4-3V38M pseudovirus. It is filed as cell-based, HIV-1. The settings on record: IC50 on NL4-3V38M relative to NL4-3D36G. Here is the method:
as §1

For another data set, the system named is NL4-3N43K pseudovirus. Format: cell-based, HIV-1. The settings on record: IC50 on NL4-3N43K relative to NL4-3D36G. Here is the method:
as §1

Data set [5] deals with HIV-1NL4-3(D36G) pseudovirus. It is filed as cell-based. The settings on record: IC50 on NL4-3D36G relative to NL4-3D36G (reference). Here is the method:
as §1

[6] abbreviates: human PBMC, 1 × 10^4 cells per well.
The mark [7] stands for this setting: human, MT-4 cells, MT-4, 1 × 10^4 cells per well.
[8] abbreviates: human, HEK293T, 1 × 10^4 cells per well.
[9] abbreviates: human, TZM-bl, 1 × 10^4 cells per well.

Molecules are shown by their SMILES. Like-named read-outs stand apart in the source and are kept apart here. Peptide text beside a SMILES is read from it. * marks the point of attachment. Stearoyl = CCCCCCCCCCCCCCCCCC(=O)*

As usually defined, the IC50 is the concentration needed to halve the response being measured. Higher therefore signals lower potency.

Consider `CCCCCCCCCCCCCCCC(=O)NCCCC[C@H](NC(=O)[C@H](CCC(=O)O)NC(=O)[C@H](CC(C)C)NC(=O)[C@H](CCCCN)NC(=O)[C@H](CCCCN)NC(=O)[C@H](CC(C)C)NC(=O)[C@H](CCC(=O)O)NC(=O)[C@H](CCC(=O)O)NC(=O)[C@H](CCC(=O)O)NC(=O)[C@H](CC(N)=O)NC(=O)[C@H](CCCCN)NC(=O)[C@H](CCCCN)NC(=O)[C@H](CCC(N)=O)NC(=O)[C@H](CCC(N)=O)NC(=O)[C@H](CCC(=O)O)NC(=O)[C@H](CCC(=O)O)NC(=O)[C@H](C)NC(=O)[C@H](CCCCN)NC(=O)[C@H](CCCCN)NC(=O)[C@H](CC(C)C)NC(=O)[C@H](CC(C)C)NC(=O)[C@H](CCC(=O)O)NC(=O)[C@H](CCC(=O)O)NC(=O)[C@@H](NC(=O)[C@H](CCCCN)NC(=O)[C@H](CCC(N)=O)NC(=O)[C@H](CCC(=O)O)NC(=O)[C@H](Cc1c[nH]c2ccccc12)NC(C)=O)[C@@H](C)CC)C(N)=O` [LP-52, reference compound], for which the CC50 at 48 h in data set [1] (setting [6]) was found to be 78.5 µM; in data set [1] (setting [7]), 108 µM; in [1] (setting [8]) it was 80.5 µM; in [1] (setting [9]), 85.8 µM.

In the case of `CCCCCCCCCCCCCCCCCC(=O)NCCCC[C@H](NC(=O)[C@H](CCC(=O)O)NC(=O)[C@H](CC(C)C)NC(=O)[C@H](CCCCN)NC(=O)[C@H](CCCCN)NC(=O)[C@H](CC(C)C)NC(=O)[C@H](CCC(=O)O)NC(=O)[C@H](CCC(=O)O)NC(=O)[C@H](CCC(=O)O)NC(=O)[C@H](CC(N)=O)NC(=O)[C@H](CCCCN)NC(=O)[C@H](CCCCN)NC(=O)[C@H](CCC(N)=O)NC(=O)[C@H](CCC(N)=O)NC(=O)[C@H](CCC(=O)O)NC(=O)[C@H](CCC(=O)O)NC(=O)[C@H](C)NC(=O)[C@H](CCCCN)NC(=O)[C@H](CCCCN)NC(=O)[C@H](CC(C)C)NC(=O)[C@H](CC(C)C)NC(=O)[C@H](CCC(=O)O)NC(=O)[C@H](CCC(=O)O)NC(=O)[C@@H](NC(=O)[C@H](CCCCN)NC(=O)[C@H](CCC(N)=O)NC(=O)[C@H](CCC(=O)O)NC(=O)[C@H](Cc1c[nH]c2ccccc12)NC(C)=O)[C@@H](C)CC)C(N)=O` [LP-80] (Ac-WEQKIEELLKKAEEQQKKNEEELKKLEK(Stearoyl)-NH2), the “Outcome of in vitro selection of resistant mutants” value in the data set with HIV-1NL4-3 was “difficult to passage the virus in the presence of LP-80 inhibitor”. For the same compound, the Fold change in data set [2] amounted to 35; in the data set on NL4-3Q40H pseudovirus, 65; in the data set on NL4-3WT pseudovirus it was 1; in the data set with NL4-3I37T pseudovirus it was 25; in data set [3] it was 1895; in data set [4], 625. Also, the Fold change is recorded as 115 in the data set on NL4-3V38A pseudovirus, 65 in the data set on NL4-3V38M pseudovirus, 125 with NL4-3N43K pseudovirus and 1 in data set [5]. Inhibition in data set [4] (NL4-3V38A/N42T, T-20 resistant, mean ± SD of 3 assays in triplicate) was half-maximal at 0.00125 ± 1e-05 µM (IC50). For the same compound, the A/G was determined as 1.50 ± 0.2 (after 1st treatment (DPI 263), before (DPI 191) 2.03 ± 0.48) and 2 ± 0.4 (after 2nd treatment (DPI 508), before (DPI 325) 2.31 ± 0.23). Also, for the setting “after 1st treatment (DPI 263), before (DPI 191) 290 ± 62.25”, the LDH came out at 443.4 ± 85.91 U/L. In addition, under “after 2nd treatment (DPI 508), before (DPI 325) 3.69 ± 0.62”, the GLU worked out at 3.74 ± 0.85 mmol/L. For the same compound, the CC50 at 48 h was determined as 37.4 µM in [1] (setting [6]), 218 µM in [1] (setting [7]), 72.2 µM in data set [1] (setting [8]) and 62.3 µM in [1] (setting [9]).

`CCCCCCCCCCCCCCCCCC(=O)NCCCC[C@H](NC(=O)[C@H](CCC(=O)O)NC(=O)[C@H](CC(C)C)NC(=O)[C@H](CCCCN)NC(=O)[C@H](CCCCN)NC(=O)[C@H](CC(C)C)NC(=O)[C@H](CCC(=O)O)NC(=O)[C@H](CCC(=O)O)NC(=O)[C@H](CCC(=O)O)NC(=O)[C@H](CC(N)=O)NC(=O)[C@H](CCCCN)NC(=O)[C@H](CCCCN)NC(=O)[C@H](CCC(N)=O)NC(=O)[C@H](CCC(N)=O)NC(=O)[C@H](CCC(=O)O)NC(=O)[C@H](CCC(=O)O)NC(=O)[C@H](C)NC(=O)[C@H](CCCCN)NC(=O)[C@H](CCCCN)NC(=O)[C@H](CC(C)C)NC(=O)[C@H](CC(C)C)NC(=O)[C@H](CCC(=O)O)NC(=O)[C@H](CCC(=O)O)NC(=O)[C@@H](NC(C)=O)[C@@H](C)CC)C(N)=O` [LP-90]: the Fold change in data set [2] came to 790; in the data set on NL4-3Q40H pseudovirus, 1390; with NL4-3WT pseudovirus, 10; in the data set with NL4-3I37T pseudovirus it was 170; in [3], 15443.33; in [4], 16396.67. The Fold change is reported as 2750 with NL4-3V38A pseudovirus, 1440 with NL4-3V38M pseudovirus, 1683.33 with NL4-3N43K pseudovirus and 1 in [5].

Values taken from PMC6375636, “Monotherapy with a low-dose lipopeptide HIV fusion inhibitor maintains long-term viral suppression in rhesus macaques” (PLoS Pathogens, 2019).
